Experimental data as given in publication PMC6630910 (Pharmaceuticals, 2019).

Protein sequences, listed by entry. Tags and fused reporters are not part of them. Lines headed by an entry give the natural chain unless they say otherwise; changes in a name come on top.
UniProt P0CAS1: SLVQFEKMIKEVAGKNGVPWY

molecular target: phospholipase A2 (Cdcum6) (Crotalus durissus cumanensis, UniProt P0CAS1); experiment: Inhibition of PLA2 activity using 4-nitro-3-octanoyloxybenzoic acid (4N3OBA) as monodispersed substrate; settings: read-out: IC50 Value for Inhibition of PLA2 Activity; 4N3OBA substrate; enzyme co-incubated with compound 30 min at 37 °C

Structure (SMILES) | IC50
CCOC(=O)CSC(=O)c1ccc(Cl)cc1 [Compound I, Ethyl 2-((4-chlorobenzoyl)thio)acetate] | 193 µM
CCOC(=O)CSC(=O)c1cccc([N+](=O)[O-])c1 [II, Ethyl 2-((3-nitrobenzoyl)thio)acetate] | 305 µM
CCOC(=O)CSC(=O)c1ccc([N+](=O)[O-])cc1 [III, Ethyl 2-((4-nitrobenzoyl)thio)acetate] | 133 µM
